Measured values reported in the supplement of paper PMC3578754.
Fold change is the IC50 on the isolate divided by the IC50 on a reference virus; 1 = unchanged, higher = more resistant. Changes are given against the subtype B consensus. No active / inactive call. The values were gathered from many studies (numbered anew) with different assays, which the source does not name. Most viruses are clinical isolates; some are laboratory strains or clones with known resistance changes. Isolates with mixed residues are left out; stretches that were not sequenced show no change. Round top values that many isolates share are read here as limits; other very high values and 0.1 may be limits too. The protease changes I3V and N37S, insertions and deletions cannot be read from the source.

Tests used:
Test in all cases: fold change of IC50 against reference virus; higher = more resistant; Cell-culture drug susceptibility tests of virus bearing the protease of each isolate, gathered from many studies.
[1] = compound: CC(C)(C)NC(=O)[C@@H]1CN(Cc2cccnc2)CCN1C[C@@H](O)C[C@@H](Cc1ccccc1)C(=O)N[C@H]1c2ccccc2C[C@H]1O [indinavir]
[2] = compound: CC(C)c1nc(CN(C)C(=O)N[C@H](C(=O)N[C@@H](Cc2ccccc2)C[C@H](O)[C@H](Cc2ccccc2)NC(=O)OCc2cncs2)C(C)C)cs1 [ritonavir]
[3] = compound: CCC[C@@]1(CCc2ccccc2)CC(O)=C([C@H](CC)c2cccc(NS(=O)(=O)c3ccc(C(F)(F)F)cn3)c2)C(=O)O1 [tipranavir]
[4] = compound: Cc1c(O)cccc1C(=O)N[C@@H](CSc1ccccc1)[C@H](O)CN1C[C@H]2CCCC[C@H]2C[C@H]1C(=O)NC(C)(C)C [nelfinavir]
[5] = compound: CC(C)(C)NC(=O)[C@@H]1C[C@@H]2CCCC[C@@H]2CN1C[C@@H](O)[C@H](Cc1ccccc1)NC(=O)[C@H](CC(N)=O)NC(=O)c1ccc2ccccc2n1 [saquinavir]
[6] = compound: Cc1cccc(C)c1OCC(=O)N[C@@H](Cc1ccccc1)[C@@H](O)C[C@H](Cc1ccccc1)NC(=O)[C@H](C(C)C)N1CCCNC1=O [lopinavir]
[7] = compound: COC(=O)N[C@H](C(=O)N[C@@H](Cc1ccccc1)[C@@H](O)CN(Cc1ccc(-c2ccccn2)cc1)NC(=O)[C@@H](NC(=O)OC)C(C)(C)C)C(C)(C)C [atazanavir]

Test System	fold change of IC50 against reference virus [1]	fold change of IC50 against reference virus [2]	fold change of IC50 against reference virus [3]	fold change of IC50 against reference virus [4]	fold change of IC50 against reference virus [5]	fold change of IC50 against reference virus [6]	fold change of IC50 against reference virus [7]
HIV-1 isolate 1496 (protease changes: I13V I15V R41K I62V I64V V77I, study 122)	100	100	3.6	100			
HIV-1 isolate 1249 (protease changes: L10F V32I L33F M46I I47V Q61E L63P V82A I93L, study 124)	7	18	1	5.8	0.3	37	
HIV-1 isolate 577 (protease changes: V32I I47V Q61E L63P V82A I93L, study 124)	3.3	4.8	0.4	2.1	0.2	2.7	
HIV-1 isolate 1409 (protease changes: K14R M36I L63P, study 132)	1	1	1				
HIV-1 isolate 1606 (protease changes: I13V V32I L33F K45I R57G V82L I84V, study 76)	28	61	16	5	0.6		37
HIV-1 isolate 11 (protease changes: L10F I15V K20I M36I M46I I47V I54V I62V L63P A71V I72T G73S I84V I85V L90M I93L, study 64)			6.4	166		206	206
HIV-1 isolate 1062 (protease changes: L10I E34Q G48V I54S I62V L63P A71V T74S V77I V82A I93L, study 124)	164	146	1.5	228	376	87	
HIV-1 isolate 380 (protease changes: L10I K20R M36I I54V I62V L63A A71V V82A L90M, study 132)	20	67	3				
HIV-1 isolate 510 (protease changes: L63P K70T I93L, study 64)	0.7	0.5	0.6	1	0.6		0.8
HIV-1 isolate 254 (protease changes: L63P I72T V77I I93L, study 64)	0.7	0.5	0.4	1	0.5		0.6
HIV-1 isolate 543 (protease changes: L10F V11I T12P I13V I15V L19P K20I E35G M36I M46I I54V L63P A71V I72L G73S I84V L90M I93L, study 64)	≥ 500	≥ 800	5.1	≥ 600			182
HIV-1 isolate 921 (protease changes: L10I M46I R57G L63P I84V, study 132)		80	6	125	125		
HIV-1 isolate 885 (protease changes: L10I V32I M46I I47A I62V L63P V77I V82I Q92K I93L C95F, study 124)		11	1.7	54	0.7	209	
HIV-1 isolate 479 (protease changes: N37Y R41K R57K V77I I93L, study 64)	1.2	0.9	0.6	1.5	0.7		0.8
HIV-1 isolate 1589 (protease changes: M46L I54V K70R V82A, study 132)	20	32	2				
HIV-1 isolate 1412 (protease changes: T12A I15V R41K I62V L63P V77I I93L, study 64)	0.5	0.4	0.9	0.6	1		0.7
HIV-1 isolate 1207 (protease changes: I62V L63A, study 132)	1	1	1				

Test System	fold change of IC50 against reference virus [1]	fold change of IC50 against reference virus [2]	fold change of IC50 against reference virus [3]	fold change of IC50 against reference virus [4]	fold change of IC50 against reference virus [5]	fold change of IC50 against reference virus [6]	fold change of IC50 against reference virus [7]
HIV-1 isolate 548 (protease changes: I15V M36I R41K, study 64)	0.4	0.4	0.6	0.4	0.6		0.6
HIV-1 isolate 1507 (protease changes: L10V M36I K43T G48V I54V I62V I64V T74S V82A, study 64)	21	50	1	37	156		24
HIV-1 isolate 1358 (protease changes: R57G, study 132)	1	1	1	1	1		
HIV-1 isolate 501 (protease changes: K70R, study 132)	1	1	1				
HIV-1 isolate 1390 (protease changes: I13V I15V R41K I62V I64V V77I, study 122)	100	100	4.8	100			
HIV-1 isolate 1495 (protease changes: L10I I13V G16A Q18H L33F N37D M46I I54V Q61H L63P A71L I72T L76V V77I N88G L90M I93L, study 8)	8.7	16.2	0.8	1.6	0.6	46.3	
HIV-1 isolate 1234 (protease changes: L10I L33F M46I I54V L63P A71V T74P I84V L90M I93L, study 124)	18	72	6.2	40	36	46	
HIV-1 isolate 1504 (protease changes: K14R K20R M36I I54V I62V A71V V82A L90M, study 132)		64	2				
HIV-1 isolate 1477 (protease changes: L10I I13V K20I E35Q M36I N37D R41K K43R R57K C67E H69K V82I L89M, study 87)			0.8				
HIV-1 isolate 373 (protease changes: L10I I13V K20I E35Q M36I R41K R57K L63S C67E H69K V82I L89M, study 87)			2				
HIV-1 isolate 996 (protease changes: L10V K20R V32I L33F E35D M36I N37D M46I F53L I54L L63P I64M C67E A71V I72V V82A N83D L89V L90M I93L, study 15)	23		93		400	72	112
HIV-1 isolate 1383 (protease changes: L10I N37D G48V F53L I54V L63P A71T V77I V82A L90M I93L, study 64)	38	30	0.2	29			46
HIV-1 isolate 1321 (protease changes: N37D D60E I62V L63P G68E V77I I93L, study 64)	0.7	0.5	0.5	1.2	0.6		0.8
HIV-1 isolate 1446 (protease changes: L10F E35D N37D L63P A71V T74P I84V L90M I93L, study 8)	8.2	15.4	1.2	20.5	16.3	3.7	
HIV-1 isolate 531 (protease changes: T4A L10F E35D N37E M46I L63P K70R A71V T74P I84V L90M I93L, study 8)	10.6	19.5	1.1	30.1	29.8	9.4	
HIV-1 isolate 1485 (protease changes: L10V I13V K14R L19P K20I M36I R41K L63P H69K K70R I72M L89M, study 87)			1				
HIV-1 isolate 165 (protease changes: L10I I13V K14R K20I M36I R41K I64L H69K K70R L89M, study 87)			0.6				
